Results of unrelated studies side by side (data: NIAID ChemDB).

All rows: growth or infection tests

Two numbers with a dash give a range or band. An empty or dashed field is not shown. Fold resistance has wild type as its base. ECn is the concentration giving n% inhibition of infection, replication or growth. Zone: diameter of growth inhibition. Neighbouring rows are from separate reports. Percent inhibition refers to the dose given; in toxicity tests it is the harm to the cells. A number after MIC or MFC names an inhibition level or a share of isolates.

SMILES,cell line,mutations,agent,strain,read-out,dose,method,result
COc1cccc(CN2C(=O)SC(=Cc3c(OC)cc(OC)cc3OC)C2=O)c1,,Chloroquine-resistant,Plasmodium falciparum,W2,EC50,,fluorescence,>10 µM
CCCCCCOC(=O)CC1COP(=O)(CO[C@H](C)Cn2cnc3c(N)ncnc32)OC1,PHH,,Hepatitis B virus,Genotype D,inhibition,1 µM,PCR,≤30%
COc1cc(OC)c(C=C2SC(=O)NC2=O)c(OC)c1,,Chloroquine-resistant,Plasmodium falciparum,W2,EC50,,fluorescence,>10 µM
CC[C@H]1OC(=O)[C@H](C)[C@@H](O[C@H]2C[C@@](C)(OC)[C@@H](O)[C@H](C)O2)[C@H](C)[C@@H](O[C@@H]2O[C@H](C)C[C@H](N(C)C)[C@H]2O)[C@](C)(OC)C[C@@H](C)C(=O)[C@H](C)[C@@H](O)[C@]1(C)O,,,Staphylococcus aureus,16 strains (methicillin- quinolone-resistant),MIC50,,,>32 µg/mL
COc1ccc(OC)c(C=O)c1,,,Aspergillus terreus,UAB673,MIC,,agar,1500 µM
CC(C)[C@H](NC(=O)c1ccc2ccccc2n1)C(=O)N[C@@H](Cc1ccccc1)[C@H](O)CN1CC[C@@H](OCc2ccncc2)C[C@H]1C(=O)NC(C)(C)C,CEMx174,,SIV,MAC251,EC50,,p27 / antigen,0.004 µM
COC(=O)Nc1nc2ccc(Sc3ccccc3)cc2[nH]1,E6 HOST CELLS,,Encephalitozoon intestinalis,,EC50,,,0.2 µg/mL
CCOC(=O)Nc1cc2oc(=O)c(-c3ccccc3)nc2c(N)n1,RK-13,,Encephalitozoon intestinalis,,inhibition,0.01 µg/mL,,6.4%
CC(C)=CCOc1ccc(C2CC(=O)c3c(O)cc(O)cc3O2)cc1O,,,Candida spp.,Candida inconspicua,zone,100 µg/mL,agar diffusion / agar,0 mm
N#Cc1c(SCCO)nsc1-c1ccccc1,HEP-2,,Coxsackie virus,TYPE B1,EC50,,plaque count,>5 µg/mL
CCN(CC)CCn1c(Cn2nc3ccccc3n2)nc2cc(Cl)ccc21,HEP-2,,Respiratory syncytial virus,LONG,inhibition,4 µg/mL,,100%
Nc1ncnc2c1cnn2C[C@@H](CO)OCP(=O)(O)O,HSB-2,,Human herpesvirus 6,GS,EC50,,cytopathic effect,>10 µM
COC(=O)Nc1nc2ccc(C(=O)C3CC3)cc2[nH]1,E6 HOST CELLS,,Encephalitozoon intestinalis,,EC50,,,0.03 µg/mL
Cc1cc(O)c2c(c1)C(=O)c1cccc(O)c1C2=O,VERO,,Ross river virus,,EC50,,cytopathic effect,>25 µg/mL
CC(C)=CCOc1ccc(C2CC(=O)c3ccc(O)cc3O2)cc1,,,Candida dubliniensis,,zone,100 µg/mL,agar diffusion / agar,0 mm
COC(=O)Nc1nc2ccc(C(=O)c3ccccc3)cc2[nH]1,E6,,Encephalitozoon intestinalis,,EC50,,,0.002 µg/mL
COc1c(O)cc2oc(-c3ccccc3)c(OC)c(=O)c2c1O,,,Saccharomyces cerevisiae,,MIC,,,250 µg/mL
CCCN1CCN(c2cc(=O)c3nc4c(oc3c2)c2c(=O)c3c(O)c(C)c5c(c34)=C(O)[C@@](C)(O/C=C/[C@H](OC)[C@@H](C)[C@@H](OC(C)=O)[C@H](C)[C@H](O)[C@H](C)[C@@H](O)[C@@H](C)/C=C/C=C(/C)C(=O)N2)O5)CC1,,,Staphylococcus aureus,SMITH,MIC,,,0.002 µg/mL
CCOC(=O)CC1COP(=O)(CO[C@H](C)Cn2cnc3c(NC(C)=O)ncnc32)OC1,HepaRG,,Hepatitis B virus,Genotype D,inhibition,1 µM,PCR,50–80%
CCCCc1ccc2nc(NC(=O)OC)[nH]c2c1,E6 HOST CELLS,,Encephalitozoon intestinalis,,EC50,,,0.03 µg/mL
CCOC(=O)Nc1cc2c(c(N)n1)N=C(c1cccc(OC)c1)CS2,RK-13,,Encephalitozoon intestinalis,,inhibition,1 µg/mL,,23.9%
C[C@@H]1[C@H](O)[C@@H](C)/C=C/C=C/CC/C=C/C=C/C=C/C=C/C(O[C@H]2O[C@H](C)[C@@H](O)[C@H](N)[C@@H]2O)CC2O[C@](O)(CC(O)C(O)CCC(O)CC(O)CC(O)CC(=O)O[C@H]1C)CC(O)C2C(=O)O,,,Candida spp.,Candida inconspicua,zone,100 µg/mL,agar diffusion / agar,0 mm
CCN(CC)CCCn1c(Cn2nc3ccccc3n2)nc2cc(C(C)=O)ccc21,HEP-2,,Respiratory syncytial virus,LONG,inhibition,4 µg/mL,,56%
C[C@H](Cn1cnc2c(N)ncnc21)OCP(=O)(O)O,Primary duck hepatocytes,,Duck hepatitis B virus,,EC50,,hybridisation,0.11 µM
Clc1ccc(COC(Cn2ccnc2)c2ccc(Cl)cc2Cl)c(Cl)c1,,,Candida krusei,ATCC 40147,MFC100,,broth dilution,32 µg/mL
Nc1ncnc2c1ncn2[C@@H]1C[C@@H](O)[C@H](CO)O1,PDH,,Duck hepatitis B virus,,EC50,,,0.0009 µM
O=C(CCCN1CC=C(n2c(=O)[nH]c3ccccc32)CC1)c1ccc(F)cc1,,,Saccharomyces cerevisiae,CaCdr2p,inhibition,5 µM,flow cytometry,86.7%
COc1c(O)c(Cl)c(Cl)c(Cl)c1Cl,,,Saccharomyces cerevisiae,288C,MIC,,,50 µg/mL
CCOC(=O)Nc1nc(NC(=O)OCC)c2c(c1N)NC(C)C(c1ccccc1)=N2,RK-13,,Encephalitozoon intestinalis,,inhibition,0.1 µg/mL,,0%
C#CC[C@@H](C(=O)N[C@H](/C=C/C(=O)OCC)C[C@@H]1CCNC1=O)n1cccc(NC(=O)c2cc(C)on2)c1=O,H1-HELA,,Rhinovirus,Serotype 59,EC50,,cytopathic effect / XTT,0.016 µM
C[C@@H]1CN(c2c(F)c(N)c3c(=O)c(C(=O)O)cn(C4CC4)c3c2F)C[C@H](C)N1,,,Mycobacterium avium complex,6,MIC,,broth dilution,2 µg/mL
Nc1ncnc2c1ncn2CCOCP(=O)(O)O,HSB-2,,Human herpesvirus 6,GS,EC50,,cytopathic effect,30 µM
CCCOc1ccc2nc(NC(=O)OC)[nH]c2c1,E6 HOST CELLS,,Encephalitozoon intestinalis,,EC50,,,0.01 µg/mL
C#C[C@]1(CO)O[C@@H](n2cnc3c(N)nc(F)nc32)CC1O,MAGIC-5A,K65R K70R Q151M M184V,HIV-2,ROD9,fold resistance,,β-galactosidase / absorbance,17
C[C@H](Cn1cnc2c(N)ncnc21)OCP(=O)(O)O,,,Punta Toro virus,,EC50,,cytopathic effect,>525 µM
CC(C)OC(=O)Nc1ccc2nc(-c3cscn3)[nH]c2c1,E6 HOST CELLS,,Encephalitozoon intestinalis,,EC50,,,0.075 µg/mL
Nc1nc(N)c2ncn(C[C@@H](CO)OCP(=O)(O)O)c2n1,Primary duck hepatocytes,,Duck hepatitis B virus,,EC50,,hybridisation,0.06 µM
CCOC(=O)CSc1nsc(-c2ccccc2)c1C#N,HEP-2,,Coxsackie virus,TYPE B1,EC50,,plaque count,>200 µg/mL
Nc1ncc2c(ncn2COC(CO)CO)n1,HSB-2,,Human herpesvirus 6,GS,EC50,,antigen / flow cytometry,0.02 µM
CC1(C)[C@@H](O[C@H]2O[C@H](C(=O)O)[C@@H](O)[C@H](O)[C@H]2O[C@@H]2O[C@H](C(=O)O)[C@@H](O)[C@H](O)[C@H]2O)CC[C@]2(C)[C@H]3C(=O)C=C4[C@@H]5C[C@@](C)(C(=O)O)CC[C@]5(C)CC[C@@]4(C)[C@]3(C)CC[C@@H]12,VERO,,Dengue virus,TYPE 2 (NGC),EC50,,cytopathic effect,174.2 µg/mL
CC(C)OC(=O)CC1COP(=O)(CO[C@H](C)Cn2cnc3c(NC(=O)c4ccccc4)ncnc32)OC1,PHH,,Hepatitis B virus,Genotype D,inhibition,1 µM,PCR,≤30%
O=c1[nH]c(=O)n([C@H]2C[C@H](O)[C@@H](CO)O2)cc1/C=C/Br,HSB-2,,Human herpesvirus 6,GS,EC50,,cytopathic effect,>1 µM
N#Cc1c(SCCCCBr)nsc1-c1ccccc1,HEP-2,,Coxsackie virus,TYPE B1,EC50,,plaque count,>25 µg/mL
C[C@@H]1CN(c2c(F)c(N)c3c(=O)c(C(=O)O)cn(C4CC4)c3c2F)C[C@H](C)N1,,,Streptococcus pneumoniae,Clinical isolate CP1000,MIC,,,0.25 µg/mL
CCC#Cc1ccc2c(c1)c(=O)c(C(=O)NCc1ccc(Cl)cc1)nn2C,,,Varicella zoster virus,,inhibition,20 µM,,90%
Nc1ccc(S(=O)(=O)c2ccc(N)cc2)cc1,,,Mycobacterium ulcerans,Isolate 8756,MIC,,,1 µg/mL
CO[C@@H]1C[C@@H](C[C@H]2CC[C@H](C)[C@H]([C@@H](C)C(=O)O)O2)O[C@]2(O[C@](C)([C@H]3CC[C@@](C)([C@@H]4O[C@@H]([C@H]5O[C@@](O)(CO)[C@H](C)C[C@@H]5C)C[C@@H]4C)O3)C[C@H]2C)[C@@H]1C,,,Mycobacterium aurum,,MIC,,resazurin,0.16 µg/mL
C[C@H](COc1cc(N)nc(N)n1)OCP(=O)(O)O,,,Punta Toro virus,,EC50,,cytopathic effect,>180 µM
COc1cccc(C=O)c1OC,,,Aspergillus terreus,UAB698,MIC,,agar,2000 µM
C[C@H](Cn1cnc2c(N)ncnc21)OCP1(=O)OCC(CC(=O)OC2CCCC2)CO1,PHH,,Hepatitis B virus,Genotype D,inhibition,1 µM,PCR,≤30%
Nc1ncnc2c1ncn2C[C@@H](CO)OCP(=O)(O)O,,,Punta Toro virus,,EC50,,cytopathic effect,>50 µM
CCN(CC)CCCC(C)Nc1ccnc2cc(Cl)ccc12,,Chloroquine-resistant,Plasmodium falciparum,W2,EC50,,fluorescence,0.033 µM
Nc1ccn(C[C@@H](CO)OCP(=O)(O)O)c(=O)n1,HSB-2,,Human herpesvirus 6,GS,EC50,,antigen / flow cytometry,11 µM
CC[C@@H](C(=O)[C@@H](C)[C@@H](O)[C@H](C)[C@@H]1O[C@@H]([C@@H](CC)C(=O)O)CC[C@@H]1C)[C@H]1O[C@@]2(C=C[C@@H](O)[C@@]3(CC[C@@](C)([C@H]4CC[C@](O)(CC)[C@H](C)O4)O3)O2)[C@H](C)C[C@@H]1C,,C330 deletion,Mycobacterium aurum,,MIC,,resazurin,0.08 µg/mL
COC(=O)c1c(SC)nsc1-c1ccccc1,HEP-2,,Coxsackie virus,TYPE B1,EC50,,plaque count,>100 µg/mL
C[C@H]1CN(c2c(F)cc3c(=O)c(C(=O)O)cn(C4CC4)c3c2OC(F)F)CCN1,,,Staphylococcus aureus,20 strains (oxacillin-susceptible),MIC90,,,0.06 µg/mL
CCCSc1nsc(-c2ccccc2)c1C(=O)O,HEP-2,,Coxsackie virus,TYPE B1,EC50,,plaque count,>500 µg/mL
COc1cc(O)c2c(=O)c(O)c(-c3ccc(O)c(O)c3)oc2c1,,,Plasmodium falciparum,Clinical isolates,EC90,,,133 µM
CC[C@H](C)[C@H]1NC(=O)[C@@H](NC(=O)[C@@H](CC(C)C)NC)[C@@H](C)OC(=O)[C@H](Cc2ccc(OC)cc2)N(C)C(=O)[C@@H]2CCCN2C(=O)[C@H](CC(C)C)NC(=O)[C@@H](C)C(=O)[C@H](C(C)C)OC(=O)C[C@@H]1O,LLC-MK2,,Dengue virus,TYPE 3,inhibition,1.25 µg/mL,plaque count,19.6%
C[N+](C)(C)CCn1c(Cn2nnc3ccccc32)nc2cc([N+](=O)[O-])ccc21,HEP-2,,Respiratory syncytial virus,LONG,inhibition,4 µg/mL,,100%
CSc1nsc(-c2ccccc2)c1C(N)=O,HEP-2,,Coxsackie virus,TYPE B1,EC50,,plaque count,>250 µg/mL
COc1cc(C=O)cc(OC)c1,,,Aspergillus terreus,UAB680,MIC,,agar,1000 µM
COc1ccc2cc3[n+](cc2c1OC)CCc1cc2c(cc1-3)OCO2,RK-13,,Encephalitozoon intestinalis,,inhibition,1 µg/mL,,62%
CCCSc1nsc(-c2ccccc2)c1C(=O)OC,HEP-2,,Coxsackie virus,TYPE B1,EC50,,plaque count,>50 µg/mL

Repeating the final 4 entries:

SMILES,cell line,mutations,agent,strain,read-out,dose,method,result
CSc1nsc(-c2ccccc2)c1C(N)=O,HEP-2,,Coxsackie virus,TYPE B1,EC50,,plaque count,>250 µg/mL
COc1cc(C=O)cc(OC)c1,,,Aspergillus terreus,UAB680,MIC,,agar,1000 µM
COc1ccc2cc3[n+](cc2c1OC)CCc1cc2c(cc1-3)OCO2,RK-13,,Encephalitozoon intestinalis,,inhibition,1 µg/mL,,62%
CCCSc1nsc(-c2ccccc2)c1C(=O)OC,HEP-2,,Coxsackie virus,TYPE B1,EC50,,plaque count,>50 µg/mL